Reference: patent publication US11376232B2, “Vidofludimus for use in the treatment or prevention of viral diseases” (Immunic AG, priority 2020, dated 2022)

How the values were obtained:
[1] = tested on: SARS-CoV-2 B.1.351
[2] = tested on: SARS-CoV-2 B.1.1.7

SMILES: COc1cccc(-c2ccc(NC(=O)C3=C(C(=O)O)CCC3)c(F)c2)c1 [IMU-838, 1-cyclopentene-1-carboxylic acid, 2-(((3-fluoro-3′-methoxy(1,1′-biphenyl)-4-yl)amino)carbonyl)-, calcium salt (2:1)]
- reduction of infectivity (CCID50) [1]: > 3 log units
- reduction of infectivity (CCID50) [2]: > 3 log units

Where a name gives a salt, the structure may show the parent alone.
